## Screening data, single-dose tests

Measurements from “University of Dundee, Small-Polar-MMV Screening Library” (2021), ChEMBL document CHEMBL3988442.

Mtb glucose medium: 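Growth of Mycobacterium tuberculosis over 3 days (7H9 medium with glucose and tyloxapol); the read-out is not stated. Compounds at 500 µM. Direction is inferred from retests: higher values go with more growth inhibition. Of about 18,000 compounds tested this way, about 1,400 (7.9%) reached 50% or more in at least one test.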
Mtb cholesterol medium: 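Growth of Mycobacterium tuberculosis over 4 days (cholesterol / DPPC medium with tyloxapol); the read-out is not stated. Compounds at 500 µM. Direction is inferred from retests: higher values go with more growth inhibition. Of about 18,000 compounds tested this way, about 900 (5%) reached 50% or more in at least one test.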

Values are the deposited “Percent Effect”, in %. The record does not define 0% and 100%; most values in the screen are far below 50% and negative numbers occur (in some assays of this library far below -100). The entries come from a sample that favours strong results. A dash means the value is not listed here; it may have been measured.

Compound	Mtb glucose medium	Mtb cholesterol medium
O=C(C1CCOCC1)N1CCC(Oc2ccccc2)C1 (configuration not stated)	22.62	30.49
COc1cccn(CC(=O)N2CCCC(N)CC2)c1=O (configuration not stated)	-8.723	-
Cc1cc(C(=O)NCCCOCC2CCOC2)c(C)o1 (configuration not stated)	-0.6215	-
CN(C)S(=O)(=O)NCCC(C)(C)C(F)(F)F	16.35	-
CC1CCCN(CC(=O)Nc2ccccc2C(N)=O)C1 (configuration not stated)	70.88	66.77
CCN(CC)C(CNC1=NCCN1)c1ccco1 (configuration not stated)	15.35	-
CC(C)CC(=O)NCCc1ccc(S(N)(=O)=O)s1	3.333	-
COC1(c2noc(-c3ccco3)n2)CCOCC1	-	28.69
c1c[nH]c(C2CCNC2)n1 (configuration not stated)	-0.3812	-
Cc1c(C(=O)NCC(N)=O)oc2ccc(Cl)cc12	52.57	-
CN(CCc1cnn(C)c1)C(=O)c1c[nH]c(=O)[nH]1	6.215	-
C/N=C1\SC(CC(=O)Nc2cccc(Cl)c2)C(=O)N1C (configuration not stated)	-13.46	-
CN1CCN(C2CCN(C(=O)c3ccsc3)C2)CC1 (configuration not stated)	16.9	-
COC(=O)CCNC(=O)c1nc(SC)n2ccccc12	10.11	-
CC(C)(C)C(CCO)NC(=O)c1ccsc1 (configuration not stated)	-	-7.688
O=C(COC(=O)CN1CCCC1=O)NCc1cccs1	-7.538	-
CC(=O)C1CCCN(C)C1 (configuration not stated)	-10.93	-
COCCn1nnc(-c2cccc(OC)c2)n1	86.05	86.14
CCn1cc(Br)cc1C(=O)N1CCN(CC(C)O)CC1 (configuration not stated)	13.7	-
c1cc2c(cc1C1=NN=C(NC3CC3)SC1)OCCO2	82.76	80.64
NCC(CO)Cc1ccco1 (configuration not stated)	-0.174	-
Cn1nnnc1SC(C(N)=O)c1ccc(Br)cc1 (configuration not stated)	39.73	18.38
O=C(Nc1ncccc1O)c1ccoc1	-4.226	-6.394
CCS(=O)(=O)C(C)C(=O)NC(C)(C)C (configuration not stated)	-	-0.4604
O=C(NCC1CCS(=O)(=O)C1)c1cccc2cn[nH]c12 (configuration not stated)	10.86	8.294
CN(C1CCCCC1)S(=O)(=O)NC1CCCCNC1=O (configuration not stated)	54.93	-
O=C(CC1C=CCC1)N1CCN(c2ccccn2)CC1 (configuration not stated)	56.51	62.01
CCCn1c(O)nnc1SCc1cccnc1	26.8	-
Cc1c(CNC(=O)COc2ccccc2)cnn1C	32.77	19.59
CCC(C)Oc1cccc(NC(=O)NCCO)c1 (configuration not stated)	37.84	-
CN1CCCN(S(=O)(=O)c2ccccc2)CC1	26.16	-
NC(=O)C1CCN(CCSc2ccccc2F)CC1	-	13.94
COC(=O)C1(N)CCSC1 (configuration not stated)	6.005	-
CCn1c(C(=O)N2CCOCC2C)cc2ccccc21 (configuration not stated)	63.49	48.45
CN1CCCN(Cc2ccc3c(c2)OCO3)CC1	1.122	-
N#Cc1cc(Br)ccc1NCCC(=O)N1CCOCC1	53.28	-
Cc1cc(NC(C)CN2CCOCC2)ncc1Br (configuration not stated)	54.82	-
CCC(CC)CN(CCC#N)C(=O)c1cccnc1	11.1	-
CCNCC(O)COc1ccc(C)cc1OC (configuration not stated)	75.09	18.57
Cc1ccc(NC(=O)C2=NN(C)C(=O)CC2)cc1Cl	-3.173	-
CC(c1nc(COc2ccc(F)cc2)no1)S(C)(=O)=O (configuration not stated)	55.73	-
COC(=O)CC1CN(CCc2ccccn2)CCO1 (configuration not stated)	-	-2.079
Cn1cnnc1C1CCN(CC2CCOC2)CC1 (configuration not stated)	-17.26	-
O=C(CSc1ncn[nH]1)Nc1ncc(Br)s1	39.16	-
CC(=O)Nc1ccc(C(=O)N(C)c2ccccc2)s1	47.57	-
CC(C#N)CNC(=O)Cc1ccccc1O (configuration not stated)	-	-3.71
NCc1cc(Cl)ccn1	76.78	54.01

Once more, the final 3:

With CC(=O)Nc1ccc(C(=O)N(C)c2ccccc2)s1 the screen gave Mtb glucose medium: 47.57%.
With CC(C#N)CNC(=O)Cc1ccccc1O (configuration not stated) the screen gave Mtb cholesterol medium: -3.71%.
With NCc1cc(Cl)ccn1 the screen gave Mtb glucose medium: 76.78%; Mtb cholesterol medium: 54.01%.